Data on 1 protein can be found in paper PMC3447402, “Structural characterization and comparison of three acyl-carrier-protein synthases from pathogenic bacteria” (Acta Crystallographica Section D: Biological Crystallography, 2012).

This data set concerns the molecule itself.

B1: acyl-carrier-protein synthase (AcpS) from Bacillus anthracis (enzyme)
chain: MIVGIGIDIIELNRIEKMLDGKLKFMERILTENERNVAKGLKGSRLTEFVAGRFAAKEAYSKAVGTGIGKEVSFLDIEVRNDDRGKPILITSTEHIVHLSISHSKEFAVAQVVLESSSS
modifications: selenomethionine (SeMet protein)
Regarding B1, the “stoichiometry N” value is 3.
